Compound potency records, mixed from different reports. Data source: NIAID ChemDB in PubChem.

Shared fields: whole-cell or culture tests; agent: Mycobacterium kansasii

An empty or dashed field is not shown. MIC50, MIC90 and the like: level of inhibition, or share of isolates inhibited. Conditions beyond the fields shown may differ between rows.

smiles | read-out | conditions | strain or isolate | read by | value
Cc1ccc(-n2c(=O)oc3ccc(C)cc3c2=S)cc1 | MIC | 14 d | My 235/80 |  | 2 µM
O=C(Nc1ccc(F)cc1)c1cc(Cl)ccc1OS(=O)(=O)c1ccccc1 | MIC | 21 d | 235/80 |  | 8 µM
CC(C)[C@H](NC(=O)OCc1ccccc1)c1cnc(-c2ccc([N+](=O)[O-])cc2)[nH]1 | MIC | 7 d | My 235/80 |  | 32 µM
O=C(Oc1ccc(Cl)cc1C(=O)Nc1cccc(C(F)(F)F)c1)c1cnccn1 | MIC | 7 d | 235/80 |  | 8 µM
CC(C)c1ccc(NC(=O)NNC(=O)c2ccncc2)cc1 | MIC100 | 14 d | My 6509/96 | broth dilution | 8 µM
O=C(Oc1cc(Cl)ccc1C(=O)Nc1cccc(Cl)c1)c1ccccc1 | MIC | 7 d | 6509/96 | broth dilution | 4 µM
C[C@H](NC(=O)OCc1ccccc1)c1cnc(-c2ccccc2)[nH]1 | MIC | 14 d | My 6509/96 |  | 125 µM
NNC(=O)c1ccncc1 | MIC | 7 d | 235/80 |  | >250 µM
O=C(Nc1cccc(Br)c1)c1cc(Cl)ccc1OS(=O)(=O)c1ccccc1 | MIC | 21 d | 235/80 |  | 16 µM
O=C(Oc1ccc(Cl)cc1C(=O)Nc1cccc(Cl)c1)c1ccccc1 | MIC | 21 d | 235/80 | broth dilution | 8 µM
O=C(Oc1cc(Cl)ccc1C(=O)Nc1cccc(Cl)c1)c1cnccn1 | MIC | 7 d | 6509/96 |  | 4 µM
O=c1oc2ccc(Br)cc2c(=S)n1-c1ccc(Cl)cc1 | MIC | 14 d | 6509/96 |  | 4 µM
C[C@H](NC(=O)OCc1ccccc1)c1cnc(-c2ccc([N+](=O)[O-])cc2)[nH]1 | MIC | 7 d | My 235/80 |  | >125 µM
O=C(Oc1cc(Cl)ccc1C(=O)Nc1ccc(Br)cc1)c1cnccn1 | MIC | 7 d | 6509/96 |  | 2 µM
N/C(=N\N=C\c1cc(Br)ccc1O)SCc1ccc(C(F)(F)F)cc1 | MIC | 14 d | ATCC 12478 | broth dilution | 62.5 µM
O=C(Nc1ccc(F)cc1)c1ccc(Cl)cc1OS(=O)(=O)c1ccccc1 | MIC | 7 d | 235/80 |  | 16 µM
C[C@@H](NC(=O)OCc1ccccc1)c1cnc(-c2ccc([N+](=O)[O-])cc2)[nH]1 | MIC | 14 d | My 6509/96 |  | >125 µM
Fc1cc(Br)ccc1Nc1nnc(-c2ccncc2)o1 | MIC100 | 7 d | My 6509/96 | broth dilution | >125 µM
O=c1oc2ccc(Cl)cc2c(=S)n1-c1ccc(F)cc1 | MIC | 14 d | My 235/80 |  | 16 µM
NC(=O)c1cnccn1 | MIC | 14 d | 235/80 |  | >1000 µM
N/C(=N\N=C\c1cc(Cl)ccc1O)SCc1cccc(Cl)c1 | MIC | 14 d | 6509/96 | broth dilution | 32 µM
O=C(Nc1cccc(Cl)c1)c1cc(Cl)ccc1OS(=O)(=O)c1ccccc1 | MIC | 21 d | 235/80 |  | 16 µM
CC[C@@H](C)[C@H](NC(=O)OCc1ccccc1)c1cnc(-c2ccccc2)[nH]1 | MIC | 21 d | My 235/80 |  | 62.5 µM
O=C(Nc1cccc(F)c1)c1ccc(Cl)cc1OS(=O)(=O)c1ccccc1 | MIC | 7 d | 6509/96 |  | 16 µM
O=C(Oc1ccc(Br)cc1C(=O)Nc1ccc(C(F)(F)F)cc1)c1cnccn1 | MIC | 14 d | 6509/96 |  | 1 µM
CCCCCc1ccc(NC(=O)NNC(=O)c2ccncc2)cc1 | MIC100 | 14 d | My 235/80 | broth dilution | 62.5 µM
O=C(Oc1ccc(Cl)cc1C(=O)Nc1ccc(C(F)(F)F)cc1)c1cnccn1 | MIC | 7 d | 235/80 |  | 2 µM
O=C(N[C@@H](Cc1ccccc1)c1cnc(-c2ccccc2)[nH]1)OCc1ccccc1 | MIC | 14 d | My 6509/96 |  | >250 µM
O=c1oc2ccc(F)cc2c(=S)n1-c1ccc(C(F)(F)F)cc1 | MIC | 21 d | 6509/96 |  | 8 µM
O=C(NNC(=O)c1ccncc1)Nc1ccc(C(F)(F)F)cc1 | MIC100 | 21 d | My 235/80 | broth dilution | >125 µM
O=C(Oc1cc(Cl)ccc1C(=O)Nc1cccc(Br)c1)c1ccccc1 | MIC | 7 d | 6509/96 | broth dilution | 2 µM
Nc1ccc(C(=O)O)c(O)c1 | MIC | 7 d | 235/80 |  | 125 µM
N/C(=N\N=C\c1cc(Cl)cc(Cl)c1O)SCc1ccc(Br)cc1 | MIC | 14 d | ATCC 12478 | broth dilution | 32 µM
O=C(Oc1cc(Cl)ccc1C(=O)Nc1ccc(Cl)cc1)c1ccccc1 | MIC | 21 d | 6509/96 | broth dilution | 4 µM
N/C(=N\N=C\c1ccccc1)SCc1ccc(Br)cc1 | MIC | 21 d | ATCC 12478 | broth dilution | 62.5 µM
O=C(Oc1ccc(Cl)cc1C(=O)Nc1ccc(Br)cc1)c1ccccc1 | MIC | 21 d | 6509/96 | broth dilution | 4 µM
O=C(Nc1cccc(Cl)c1)c1ccc(Cl)cc1OS(=O)(=O)c1ccccc1 | MIC | 21 d | 235/80 |  | 16 µM
N/C(=N\N=C\c1ccccc1)SCc1cccc(Cl)c1 | MIC | 14 d | ATCC 12478 | broth dilution | 62.5 µM
O=C(Nc1ccc(Br)cc1)c1ccc(Br)cc1OS(=O)(=O)c1ccccc1 | MIC | 14 d | 235/80 |  | 16 µM
FC(F)(F)c1ccc(-n2c(=S)oc3ccc(Br)cc3c2=S)cc1 | MIC | 14 d | 6509/96 |  | 32 µM
Cc1ccc(CS/C(N)=N/N=C/c2ccccc2)cc1 | MIC | 14 d | 6509/96 | broth dilution | 62.5 µM